A mixed list of measured activities; the numbers were collected in NIAID ChemDB.

Shared fields: whole-cell or culture tests; agent: Mycobacterium tuberculosis

ECn: concentration that inhibits the pathogen or its effect by n%. Percent inhibition refers to the dose given; in toxicity tests it is the harm to the cells. An empty or dashed field is not shown. Conditions beyond the fields shown may differ between rows. Two numbers with a dash give a range or band. MIC bound: limit read from a one-dose screen.

compound	strain or isolate	cells	method	endpoint	tested at	value
CN[C@@H]1[C@H](O[C@H]2[C@H](O[C@H]3[C@H](O)[C@@H](O)[C@H](N=C(N)N)[C@@H](O)[C@@H]3N=C(N)N)O[C@@H](C)[C@]2(O)C=O)O[C@@H](CO)[C@H](O)[C@H]1O	91196			MIC		<2 µg/mL
CC1(C)[C@H]2CC[C@@H](CNCCNCCC(c3ccccc3)c3ccccc3)[C@@H]1C2				MIC		6.25 µM
CC1=NN(c2ccccc2)C(=O)C1N=Nc1ccc(S(=O)(=O)Nc2nnc(C)s2)cc1	TAC-R			MIC		3.1 µg/mL
CCCCc1ccc2nc(C)cc(N/N=C/c3ccc(OC)c4ccccc34)c2c1	H37Rv	VERO		MIC		6.25 µg/mL
CCCCCNCCNCCC1=CCCCC1				MIC		25 µM
CC(CNC1CCCCCCC1)NCC12CC3CC(CC(C3)C1)C2				MIC		25 µM
O=C(/C=C/c1cc2ccccc2[nH]1)c1ccncc1	H37Rv			inhibition	12.5 µg/mL	12%
CC(C)c1ccc2c(c1)CC[C@H]1[C@](C)(CNCCNCCc3ccc(F)cc3)CCC[C@]21C				MIC		25 µM
CCCCCCCCCCc1c2nc(c(CCCCCCCCCC)c3ccc([nH]3)c(CCCCCCCCCC)c3ccc([nH]3)c(CCCCCCCCCC)c3nc1C=C3)C=C2	H37Rv		resazurin	MIC bound		>6.25 µg/mL
CO[C@H]1/C=C/O[C@@]2(C)Oc3c(C)c(O)c4c(O)c(c(/C=N/N5CCN(C)CC5)c(O)c4c3C2=O)NC(=O)/C(C)=C\C=C\[C@H](C)[C@H](O)[C@@H](C)[C@@H](O)[C@@H](C)[C@H](OC(C)=O)[C@@H]1C	H37Rv			Median MIC		0.1 µg/mL
COc1ccc2oc(=O)n(-c3ccc([N+](=O)[O-])cc3)c(=O)c2c1	CNCTC MY331/88			MIC		32 µM
CC1CCCC(NCCNC2CCCCCCC2)C1C				MIC		25 µM
CO[C@H]1/C=C/O[C@@]2(C)Oc3c(C)c(O)c4c(=O)c(c5oc6cc(N7CCN(CC(C)C)CC7)cc(=O)c6nc5c4c3=C2O)NC(=O)/C(C)=C\C=C\[C@H](C)[C@H](O)[C@@H](C)[C@@H](O)[C@@H](C)[C@H](OC(C)=O)[C@@H]1C	2227 (rifampin-resistant)			MBC		0.05 µg/mL
O=C(N/N=C/c1ccco1)c1ccccc1				MIC		0.1–10 µg/mL
Clc1ccc(-c2nc(-c3cc4cc(Cl)ccc4o3)cs2)cc1	H37Rv		BACTEC	inhibition	12.5 µg/mL	-49%
COc1ccc(CCNCCNCc2ccc(OC)c(OC)c2)cc1				MIC		25 µM
CN[C@@H]1[C@H](O[C@H]2[C@H](O[C@H]3[C@H](O)[C@@H](O)[C@H](N=C(N)N)[C@@H](O)[C@@H]3N=C(N)N)O[C@@H](C)[C@]2(O)C=O)O[C@@H](CO)[C@H](O)[C@H]1O	Isolate 11			MIC		64 µg/mL
COc1ccccc1CCNCCNCCNc1ccccc1				MIC		50 µM
CC(=O)O[C@H]1C[C@@]2(C)[C@@H](C[C@@H](O)[C@H]3[C@@]4(C)CC[C@@H](O)[C@@H](C)[C@@H]4CC[C@@]32C)/C1=C(\CCC=C(C)C)C(=O)O	H37Ra			Mean MIC		3.5 µg/mL
Cc1ccc2c(=O)n(-c3ccc(C#N)cc3)c(=O)oc2c1	CNCTC MY331/88			MIC		16 µM
CO[C@H]1/C=C/O[C@@]2(C)Oc3c(C)c(O)c4c(O)c(c(/C=N/N5CCN(C)CC5)c(O)c4c3C2=O)NC(=O)/C(C)=C\C=C\[C@H](C)[C@H](O)[C@@H](C)[C@@H](O)[C@@H](C)[C@H](OC(C)=O)[C@@H]1C	1S			MIC		1 µg/mL
CCOC(=O)c1c(C(CC)C(=O)OC(C)C)cc2n(c1=O)Cc1c-2nc2ccccc2c1Cl	H37Rv		resazurin	inhibition	6.25 µg/mL	12%
CC(NCCNCC1(O)CCCCC1)c1cccc2ccccc12				MIC		50 µM
O=C(N/N=C/c1ccncc1)c1ccncc1	H37Rv		BACTEC	MIC		0.16 µg/mL
C[C@@H]1CN(c2c(F)c(N)c3c(=O)c(C(=O)O)cn(C4CC4)c3c2F)C[C@H](C)N1	Isolate 14			MIC		0.13 µg/mL
O=c1[nH]c2ccc(Cl)cc2c(=O)o1	H37Rv		resazurin	inhibition	6.25 µg/mL	13%
Nc1ccccc1/C=C/C(=O)c1cc(Br)ccc1O	H37Rv			EC50		>12.5 µg/mL
C[C@H](NCCNCC(c1ccccc1)c1ccccc1)[C@H](O)c1ccc(O)c(O)c1				MIC		3.13 µM
CN(C)c1ccc(Nc2c3ccccc3nc3ccccc23)cc1	H37Rv		resazurin	inhibition	6.25 µg/mL	9%
O=C1C[C@@H](c2ccc(O)cc2)Oc2c1c(O)cc(O[C@@H]1O[C@H](CO)[C@@H](O)[C@H](O)[C@H]1O)c2[C@H]1C(=O)c2c(O)cc(O)cc2O[C@@H]1c1ccc(O)cc1				EC50		>12.5 µg/mL
Nc1ccc(C(=O)O)c(O)c1	H37Ra			Mean MIC		1.34 µg/mL
COc1ccc(C2OC(=O)c3ncccc32)cc1	H37Rv		BACTEC	inhibition	12.5 µg/mL	-1%
CC[C@H]1OC(=O)[C@H](C)[C@@H](O[C@H]2C[C@@](C)(OC)[C@@H](O)[C@H](C)O2)[C@H](C)[C@@H](O[C@@H]2O[C@H](C)C[C@H](N(C)C)[C@H]2O)[C@](C)(OC)C[C@@H](C)C(=O)[C@H](C)[C@@H](O)[C@]1(C)O	101596			MIC		>4 µg/mL
CC(C)=CCC/C(C)=C/CNCCN[C@@H]1C[C@@H]2C[C@H]([C@H]1C)C2(C)C				MIC		25 µM
O=C1OC(=O)C2C1C1CCC2(C2OCCO2)O1	H37Rv		BACTEC	inhibition	12.5 µg/mL	9%
CO[C@H]1/C=C/O[C@@]2(C)Oc3c(C)c(O)c4c(O)c(c(/C=N/N5CCN(C6CCCC6)CC5)c(O)c4c3C2=O)NC(=O)/C(C)=C\C=C\[C@H](C)[C@H](O)[C@@H](C)[C@@H](O)[C@@H](C)[C@H](O)[C@@H]1C	Isolate 910328 rifampicin-resistant			MIC		>64 µg/mL
NC(=O)c1nnn2c1nc(N)c1cc(Cl)ccc12	H37Rv		BACTEC	MIC bound		>12.5 µg/mL
C[C@@H]1CN(c2c(F)c(N)c3c(=O)c(C(=O)O)cn(C4CC4)c3c2F)C[C@H](C)N1	900201			MIC		0.2 µg/mL
CC(=O)NC[C@H]1CN(c2ccc(N3CCOCC3)c(F)c2)C(=O)O1	H37Rv			MIC		0.5 µg/mL
O=C1C(=O)c2ccccc2C(O)=C1C(C1=C(O)c2ccccc2C(=O)C1=O)c1ccc(C(C2=C(O)c3ccccc3C(=O)C2=O)C2=C(O)c3ccccc3C(=O)C2=O)cc1	H37Rv		BACTEC	inhibition	12.8 µg/mL	73%
CC(CNC1CCCCCCC1)NC[C@@H]1CC[C@H]2C[C@@H]1C2(C)C				MIC		12.5 µM
N/C(=N\N=C(\N)c1ccccc1)c1ccccc1				MIC		>200 µg/mL
COc1ccc2ccccc2c1/C=N/Nc1cc(C)nc2cc(Cl)ccc12	H37Rv	VERO		MIC		6.25 µg/mL
CCCCC(CC)CN1CN(CC(CC)CCCC)CC(C)(NCCNCC(C)c2ccccc2)C1				MIC		6.25 µM
COc1ccccc1/C=C/C(=O)c1ccccc1O				EC50		>12.5 µg/mL
Cc1ccc(-n2cc(-c3ccc(Cl)cc3)c3c2N=CN2NC(c4ccco4)=NC32)cc1	H37Rv		BACTEC	MIC bound		>12.5 µg/mL
O=C(N/N=C/c1ccc(Cl)cc1Cl)c1ccccc1Cl				MIC		100 µg/mL
Cc1cc(NN)c2c(Cl)cc(Cl)cc2n1	H37Rv	VERO		MIC		>12.5 µg/mL
CCCCNCC(=O)Nc1ccc(C)c(Cl)c1	H37Rv		BACTEC	inhibition	12.5 µg/mL	67%
NC[C@H]1O[C@H](O[C@H]2[C@H](O)[C@@H](O[C@H]3O[C@H](CO)[C@@H](O)[C@H](N)[C@H]3O)[C@H](N)C[C@@H]2N)[C@H](O)[C@@H](O)[C@@H]1O	TN3806 (W1)			MIC		>256 µg/mL
Cc1cc(NN)c2cc(C3CCCCC3)ccc2n1	H37Rv	VERO		inhibition	12.5 µg/mL	100%
Cc1ccc(S(=O)(=O)n2oc(=O)c(C3CCCCC3)c2N)cc1	H37Rv		resazurin	inhibition	6.25 µg/mL	13%
CC(=O)Nc1ccc(/C=N/NC(=O)c2ccccc2)cc1				MIC		10 µg/mL
O=C(O)c1ccc2c(c1)C(=O)CC(c1ccccc1)O2				inhibition	12.5 µg/mL	0%
CCCCCCCCCCCNCCNC1CCc2ccccc21				MIC		25 µM
CCCCCC1C(C(=O)O)NC(=O)C1c1ccccc1	H37Rv		BACTEC	MIC bound		>12.5 µg/mL
Cc1ccc2c(=O)n(-c3ccc(F)cc3)c(=O)oc2c1	CNCTC MY331/88			MIC		32 µM
NNC(=O)c1ccncc1	PR455			MIC		0.08 µg/mL
CC(=O)c1ccc(NC(=O)C(=O)Nn2c(=S)[nH]c3ccccc3c2=O)cc1	H37Rv		BACTEC	MIC bound		>12.5 µg/mL
NC(=O)c1cnccn1	Isolate M49586			MIC		>900 µg/mL
CO[C@H]1/C=C/O[C@@]2(C)Oc3c(C)c(O)c4c(O)c(c5c(c4c3C2=O)NC2(CCN(CC(C)C)CC2)N=5)=NC(=O)/C(C)=C\C=C\[C@H](C)[C@H](O)[C@@H](C)[C@@H](O)[C@@H](C)[C@H](OC(C)=O)[C@@H]1C	Strain 83 84			MIC		2 µg/mL
CC(Cc1ccc(Cl)cc1)NCCNC[C@]1(C)CCC[C@]2(C)c3ccc(C(C)C)cc3CC[C@@H]12				MIC		50 µM
Cc1ccc(/C=C2\CN(C)CC3=C2NC(=S)NC3c2ccc(C)cc2)cc1	H37Rv		BACTEC	inhibition	12.5 µg/mL	46%
CO[C@H]1/C=C/O[C@@]2(C)Oc3c(C)c(O)c4c(O)c(c5c(c4c3C2=O)NC2(CCN(CC(C)C)CC2)N=5)=NC(=O)/C(C)=C\C=C\[C@H](C)[C@H](O)[C@@H](C)[C@@H](O)[C@@H](C)[C@H](OC(C)=O)[C@@H]1C	2912 (rifampin-sensitive)			MIC		0.025 µg/mL
CC(=O)OCCn1c2ccccc2nc2cc3c(cc21)c(Cl)c(=O)c1ccccc13	H37Rv		BACTEC	inhibition	12.5 µg/mL	92%
CO[C@H]1/C=C/O[C@@]2(C)Oc3c(C)c(O)c4c(O)c(c(/C=N/N5CCN(C)CC5)c(O)c4c3C2=O)NC(=O)/C(C)=C\C=C\[C@H](C)[C@H](O)[C@@H](C)[C@@H](O)[C@@H](C)[C@H](OC(C)=O)[C@@H]1C	TN808			MIC		>32 µg/mL
Cc1ccc(S(=O)(=O)NNC(=O)c2cc(C)c(C)cc2NCC(O)C(O)C(O)CO)cc1	H37Rv		BACTEC	MIC		≥12.5 µg/mL
NC[C@H]1O[C@H](O[C@H]2[C@H](O)[C@@H](O[C@H]3O[C@H](CO)[C@@H](O)[C@H](N)[C@H]3O)[C@H](N)C[C@@H]2N)[C@H](O)[C@@H](O)[C@@H]1O	H37Rv			Mean MIC		1.56 µg/mL
CC(CNC1CCCCCCC1)N[C@H]1C[C@H]2C[C@@H]([C@@H]1C)C2(C)C				MIC		12.5 µM
CCOC(=O)C(=O)CC1=CC=CC2=NC(=O)CCN12	H37Rv		resazurin	inhibition	6.25 µg/mL	-27%
CO[C@H]1/C=C/O[C@@]2(C)Oc3c(C)c(O)c4c(O)c(c(/C=N/N5CCN(C)CC5)c(O)c4c3C2=O)NC(=O)/C(C)=C\C=C\[C@H](C)[C@H](O)[C@@H](C)[C@@H](O)[C@@H](C)[C@H](OC(C)=O)[C@@H]1C	Isolate 9			MIC		>32 µg/mL
O=c1oc2ccc(F)cc2c(=O)n1-c1ccc(Cl)c(Cl)c1	CNCTC MY331/88			MIC		8 µM
O=C(N/N=C/c1ccc2c(c1)OCO2)c1ccccc1Cl				MIC		100 µg/mL
COc1cc(OC)c2c(c1)OC(c1cc(OC)c(OC)c(OC)c1)CC2=O				EC50		>12.5 µg/mL